In one assay the test system is PrP^Sc in ScN2a cells. Nature of the assay: Long-term (20 days) treatment and drug withdrawal, PrP^Sc immunoblot, ScN2a cells. The note with it: 20 days (five passages), then 20 days without drug, FIG. 6A. On the technique in general: Immunoblotting shows a protein as a band on a membrane.
In assay [1] the test system is PrP^Sc in ScMEF cells (prion strain Me7). Put plainly: Long-term (20 days) treatment and drug withdrawal, PrP^Sc immunoblot, ScMEF cells. The note with it: 20 days (five passages), then 20 days without drug, FIG. 6C.

2 molecules from patent US9974771B2 (priority 2016, dated 2018) can be followed below.

Regarding `NCCCC[C@H](N)C(=O)Nc1ccc(-n2nc(C(F)(F)F)cc2-c2ccc3c(ccc4ccccc43)c2)cc1` [AR-14], the “PrP^Sc signal during long-term treatment and after withdrawal” value in the assay with PrP^Sc in ScN2a cells (AR-14 2 μM) was “completely disappeared during drug treatment and did not reappear after drug withdrawal”; in assay [1] (AR-14 2 μM) it was “completely disappeared during drug treatment and did not reappear after drug withdrawal”.
Take `NCC(=O)Nc1ccc(-n2nc(C(F)(F)F)cc2-c2ccc3c(ccc4ccccc43)c2)cc1` [AR-12, 2-amino-N-(4-(5-(phenanthren-2-yl)-3-(trifluoromethyl)-1H-pyrazol-1-yl)phenyl)acetamide]: the “PrP^Sc signal during long-term treatment and after withdrawal” value with PrP^Sc in ScN2a cells (AR-12 3 μM) is “completely disappeared during drug treatment and did not reappear after drug withdrawal”; in assay [1] (AR-12 3 μM), “completely disappeared during drug treatment and did not reappear after drug withdrawal”.
